Pooled drug test results. Numbers come from NIAID ChemDB, via PubChem.

Common to all: tests in culture; organism: Influenza A virus; method: cytopathic effect; measure: EC50

Rows are shuffled and stem from different studies. An empty or dashed field is not shown. ECn: concentration that inhibits the pathogen or its effect by n%.

compound | cell line | strain or isolate | value
CC=NC(=N)c1nc(-c2cccc(OC)c2)n(COCCO)n1 | MDCK | Ishikawa | >200 µg/mL
CC(C)CS[C@H]1C[C@@H](n2cnc3c(N)ncnc32)[C@H](O)[C@@H]1O | MDCK | - | >100 µg/mL
CCC(CC)O[C@@H]1C=C(C(=O)O)C[C@H](N)[C@H]1NC(C)=O | MDCK | Influenza A/Shandong/09/03 (H3N2) | 0.012 µM
CCON=C[C@H]1O[C@@H](n2cnc3c(N)ncnc32)[C@H](O)[C@@H]1O | MDCK | Ishiwara | 0.8 µg/mL
NS(=O)c1ncnc2c1ncn2[C@H]1C[C@H](O)[C@@H](CO)O1 | - | - | >320 µM
CC=NC(=N)c1nc(-c2ccc(OC)cc2)n(Cc2ccccc2)n1 | MDCK | Ishikawa | >100 µg/mL
NS(=O)(=O)c1ncnc2c1ncn2[C@H]1C[C@H](O)[C@@H](CO)O1 | - | - | >320 µM
CCCOc1ncn(-c2ccc(NC(=S)NC3O[C@H](CO)[C@@H](O)[C@H](O)[C@H]3O)cc2)n1 | MDCK | Ishikawa | >200 µg/mL
C/C1=C\C=C\C2(C)C=C(CO[C@H]3O[C@H](CO)[C@H](O)[C@H](O)[C@H]3O)C(C)CC23OC([O-])C(C3=O)C(O)/C=C/C2(C)C=C(CO)C(C)CC23OC([O-])C(C3=O)C(O)/C(C)=C/C=C/C2C=C(CO[C@H]3O[C@H](CO)[C@H](O)[C@H](O)[C@H]3O)C(C)CC23OC([O-])C(C3=O)C(O)/C=C/C2(C)C=C(C=O)C(C)CC23OC([O-])C(C3=O)C1O | MDCK | A/Victoria | >100 µg/mL
CC1(CO)CCC(Cn2nnc3c(N)ncnc32)C1(C)C | MDCK | H3N2 X31 | >50 µg/mL
CCCOc1ncn(-c2ccc(NC(=S)Nc3cnccn3)cc2)n1 | MDCK | Ishikawa | ≥100 µg/mL
Nc1nccc2c1ncn2[C@@H]1C[C@H](CO)[C@@H](O)[C@H]1O | MDCK | - | 100 µg/mL
CCCOc1ncn(-c2ccc(NC(=S)Nc3cccc(O)c3)cc2)n1 | MDCK | Ishikawa | >100 µg/mL
COS(=O)(=O)O.N=C(N)c1ccc2cc(OC(=O)c3ccc(N=C(N)N)cc3)ccc2c1 | MDCK | B/Singapore/222/79 | 1.5 µg/mL
CC(C)Oc1ccccc1CNC(=O)c1ccc2cnccc2n1 | MDCK | - | >10 µM
C/C1=C\C=C\C2(C)C=C(CO)C(C)CC23OC([O-])C(C3=O)C(O)/C=C/C2(C)C=C(C=O)C(C)CC23OC([O-])C(C3=O)C(O)/C(C)=C/C=C/C2C=C(CO)C(C)CC23OC([O-])C(C3=O)C(O)/C=C/C2(C)C=C(C=O)C(C)CC23OC([O-])C(C3=O)C1O | MDCK | A/Victoria | 6.8 µg/mL
CC1(CO)CCC(Cn2cnc3c(=O)[nH]c(N)nc32)C1(C)C | MDCK | H3N2 X31 | >50 µg/mL
NSc1ncnc2c1ncn2[C@H]1C[C@H](O)[C@@H](CO)O1 | - | - | >320 µM
CC1(CO)CCC(Cn2nnc3c(N)nc(N)nc32)C1(C)C | MDCK | H3N2 X31 | >50 µg/mL
Cc1ccc(C(=S)NC[C@@]2(C)C[C@H](O)CC(C)(C)C2)cc1 | MDCK | H1N1 A/WSN/33 | >10 µg/mL
O=C(NCCc1ccccc1)C1=Cc2ccncc2CC1 | MDCK | - | >344 µM
Cc1ccc(C(=S)NC[C@@]2(C)C[C@@H](O)CC(C)(C)C2)c(C)c1 | MDCK | H1N1 A/WSN/33 | >10 µg/mL
CC=NC(=N)c1nc(-c2ccccc2)n(C/C=C/c2ccccc2)n1 | MDCK | Ishikawa | >20 µg/mL
Cc1cc(NCCCCCCCCNc2cc(C)nc3cc(N(C)C)ccc23)c2ccc(N(C)C)cc2n1 | MDCK | B/Singapore/222/79 | >500 µg/mL
CC=NC(=N)c1nc(-c2ccc(OC)cc2)n(C/C=C/c2ccccc2)n1 | MDCK | Ishikawa | >100 µg/mL
Nc1ccn([C@@H]2C=C(CO)[C@@H](O)[C@H]2O)c(=O)n1 | MDCK | - | 4.5 µg/mL
CC=NC(=N)c1nc(-c2cccc(C)c2)n(Cc2ccccc2)n1 | MDCK | Ishikawa | >20 µg/mL
CC1(CO)CCC(Cn2nnc3c(Cl)nc(N)nc32)C1(C)C | MDCK | H3N2 X31 | >50 µg/mL
Nc1ncnc2c1ncn2[C@@H]1O[C@H](C=NOCc2ccccc2)[C@@H](O)[C@H]1O | MDCK | Ishiwara | 20 µg/mL
O=C(/C=C/c1ccc(O)c(O)c1)O[C@@H]1CC(O)(C(=O)O)C[C@@H](OC(=O)/C=C/c2ccc(O)c(O)c2)C1O | MDCK | A/Shandong/09/93 (H3N2) | >100 µM
Cc1ccccc1C(=S)NC[C@@]1(C)C[C@@H](O)CC(C)(C)C1 | MDCK | H1N1 A/WSN/33 | >10 µg/mL
C=C(N=CC)c1nc(-c2ccc(C)cc2)n([C@@H]2O[C@H](CO)[C@@H](O)[C@H]2O)n1 | MDCK | Ishikawa | >100 µg/mL
CC1(C)C[C@H](O)C[C@](C)(CNC(=S)c2cccc(F)c2)C1 | MDCK | H1N1 A/WSN/33 | >10 µg/mL
CC=NC(=N)c1nc(-c2ccc(OC)cc2)n(COCCO)n1 | MDCK | Ishikawa | >200 µg/mL
CC1(CO)CCC(Cn2cnc3c(=O)[nH]cnc32)C1(C)C | MDCK | H3N2 X31 | >250 µg/mL
CC=NC(=N)c1nc(-c2cccc(C)c2)n(C/C=C/c2ccccc2)n1 | MDCK | Ishikawa | >20 µg/mL
C/C1=C\C=C\C2(C)C=C(CO[C@H]3O[C@H](CO)[C@H](O)[C@H](O)[C@H]3O)C(C)CC23OC([O-])C(C3=O)C(O)/C=C/C2(C)C=C(C=O)C(C)CC23OC([O-])C(C3=O)C(O)/C(C)=C/C=C/C2C=C(CO[C@H]3O[C@H](CO)[C@H](O)[C@H](O)[C@H]3O)C(C)CC23OC([O-])C(C3=O)C(O)/C=C/C2(C)C=C(C=O)C(C)CC23OC([O-])C(C3=O)C1O | MDCK | A/Victoria | >100 µg/mL